Experimental data from PMC6983991, “Toxicity and Anti-promastigote Activity of Benzoxazinoid Analogs Against Leishmania (Viannia) braziliensis and Leishmania (Leishmania) infantum” (Advanced Pharmaceutical Bulletin, 2019).

Experiments:
[1] = test system: Leishmania (L.) infantum (MHOM/BR/74/PP75) promastigotes; experiment: Anti-promastigote activity, MTT colorimetric assay; assay type: cell-based; details: ratio of CC50 (hamster spleen cells) to GM of IC50; CC50 >400 taken as 400
Description: (§1) Promastigotes of Leishmania (V.) braziliensis (MHOM/BR/75/M2903) and Leishmania (L.) infantum (MHOM/BR/74/PP75) were grown in a biphasic medium. The solid phase was composed of Nicolle–Novy–MacNeals (NNN) medium with 15% defibrillated rabbit blood. Already in the liquid phase, we employed Roswell Park Memorial Institute (RPMI)-1640 (Sigma-Aldrich, St. Louis, USA) or Liver Infusion Tryptose (LIT) medium with 15% fetal bovine serum (Gibco – Thermo Fisher Scientific, Waltham USA), both supplemented with 1% of penicillin-streptomycin antibiotic solutions (10.000 U/mL of penicillin and 10.000 μg/mL of streptomycin; Gibco – Thermo Fisher Scientific, Waltham, USA). Cultures were maintained in an incubator at 25°C until parasites reached logarithmic phase (4 days). Next, the cultures were centrifuged and the pellet was suspended in RPMI-1640 or LIT for counting promastigotes using a Neubauer hemocytometer under an optical microscope (Axiostar Plus Carl Zeiss, Jena, Germany) at 400x magnification. Subsequently, parasites were diluted in RPMI-1640 or LIT medium at a final concentration of 1 x 10^6parasites/mL for use in antileishmanial assays.
(§2) The 50% inhibitory concentration (IC50) against L. (V.) braziliensis and L. (L.) infantum was evaluated by determination of the parasite viability using the colorimetric 3-(4,5-dimethylthiazol-2-yl)-2,5-diphenyltetrazolium bromide (MTT) method.[19] Initially, 100 μL of the promastigote suspension prepared in RPMI-1640 or LIT medium (1 × 10^6cells/mL) was added in each well of the 96-well microplate. Parasites were then treated with two-fold serial dilutions (from 3.12 to 400 µg/mL) of Bex-derived analogs prepared in 10% dimethyl sulfoxide (DMSO) (Sigma-Aldrich, St. Louis, USA) and the microplates were incubated at 25°C for 48 h. Next, 20 μL of MTT solution at 5 mg/mL (Sigma-Aldrich, St. Louis, USA) was added to the parasite cultures and the plates were covered with laminated paper and incubated at 37°C for 4 h. Finally, the plates were centrifuged at 1500 rpm for 15 min at 4°C (Heraeus-Megafuge 11R Centrifuge - Thermo Fisher Scientific, Waltham USA) and the formazan crystals formed were dissolved by the addition of 200 μL 10% DMSO. After further incubation for 5 min at room temperature, absorbance at 570 nm of samples measured using a microplate reader (Metller Toledo, Brazil). Meglumine antimoniate (Glucantime®Sanofi-aventis, France) and amphotericin B (Eurofarma, Brazil) were included as positive controls, and 10% DMSO solution was used as a solvent control. Samples containing RPM1-1640 or LIT only were used to control the sterility of media and samples containing inoculum and medium, but not compounds, were employed as growth controls.

[2] = test system: Leishmania (V.) braziliensis (MHOM/BR/75/M2903) promastigotes; experiment: Anti-promastigote activity, MTT colorimetric assay; assay type: cell-based; details: ratio of CC50 (hamster spleen cells) to GM of IC50; CC50 >400 taken as 400
Description: as §1, §2

CCC1Oc2ccccc2N(O)C1=O (stereo not drawn) [Bex3]
SI L. infantum [1]: 1.16 | SI L. braziliensis [2]: 1.12

O=C1COc2cccnc2N1O [Pyr1]
SI L. infantum [1]: 3.96 | SI L. braziliensis [2]: 3.59

CC1Oc2ccccc2N(O)C1=O (stereo not drawn) [Bex2]
SI L. infantum [1]: 2.53 | SI L. braziliensis [2]: 2.59

CCCC1Oc2cccnc2N(O)C1=O (stereo not drawn) [Pyr4]
SI L. infantum [1]: 2.17 | SI L. braziliensis [2]: 2.01

C[C@@H]1[C@H](O)[C@@H](C)/C=C/C=C/C=C/C=C/C=C/C=C/C=C/[C@H](O[C@@H]2O[C@H](C)[C@@H](O)[C@H](N)[C@@H]2O)C[C@@H]2O[C@](O)(C[C@@H](O)C[C@@H](O)[C@H](O)CC[C@@H](O)C[C@@H](O)CC(=O)O[C@H]1C)C[C@H](O)[C@H]2C(=O)O [ANFO, Amphotericin B, reference compound]
SI L. infantum [1]: 2.15 | SI L. braziliensis [2]: 2.68

CC1Oc2cccnc2N(O)C1=O (stereo not drawn) [Pyr2]
SI L. infantum [1]: 3.48 | SI L. braziliensis [2]: 3.90
